Experimental data reported in article PMC11946258, “Self-Assembly, Antimicrobial Properties and Biodegradability of Ester-Functionalized Choline-Based Surface-Active Ionic Liquids” (Molecules, 2025).

System: microorganisms derived from activated sludge
Test: Aerobic biodegradability, CO2 Headspace Test (OECD 310)
Conditions: for Biodegradation (%) 28 Days: 95% confidence limits, four replicates

Compound | Biodegradation (%) 7 Days | Biodegradation (%) 14 Days | Biodegradation (%) 21 Days | Biodegradation (%) 28 Days
CCCCCCCCCCOC(=O)C[N+](C)(C)CCO [C10ECholBr] | 10% | 19% | 40% | 64 ± 2.9%
CCCCCCCCCCCCOC(=O)C[N+](C)(C)CCO [C12ECholBr] | 26% | 28% | 46% | 69 ± 5.5%
CCCCCCCCCCCCCCOC(=O)C[N+](C)(C)CCO.[Br-] [C14ECholBr, N-(2-hydroxyethyl)-N,N-dimethyl-2-oxo-2-(tetradecyloxy)ethan-1-aminium bromide] | 29% | 34% | 57% | more than 60% and 61 ± 3.0%

Values joined by “and” are separate entries in the source; they are usually repeats but may differ in a detail not shown here. Identical values can stand only once.
